Test results taken from patent publication US20080125362A1, “Method of screening compound preventing cells from infection with Hepatitis C virus (HCV)” (Japan Tobacco Inc., priority 2004, published 2008).

Target: human FGFR-5 (full length, GenBank NM-021923 / NP-068742) (human) (UniProt Q8N441)
Assay: cell-based or functional assay

## pseudotyped virus of HCV coated with the E1 and E2 proteins of HCV
  infectivity of ΔG/SEAP/HCV E1E2 to CHO/FGFR-5 (relative SEAP activity): 6 times
